{"source": "PubChem BioAssay AID1259311", "about": "(ICCB-Longwood Screening Facility, Harvard Medical School, 2017)", "note": "The entries are a selection whose mix differs from that of the whole data set. The source made the active and inactive calls. Cut-off read from the data, not from the text of the source: active = inhibition above about 85%; inactive = the rest.", "data": [{"test": "growth inhibition of S. aureus RN4220, primary screen, OD600 (AID 1259311);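 note: plate controls were untreated cells for no effect and reference antibiotic for full effect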", "details": "OD600, 16 h, stronger effect = higher value", "values": [{"smiles": "COc1cc(C(=O)NCC2(N3CCOCC3)CCCCC2)cc(OC)c1C", "inhibition": "inactive: 5.28%"}, {"smiles": "O=C(NCC1(N2CCOCC2)CCCCC1)c1cc(Br)ccc1Cl", "inhibition": "inactive: 2.49%"}, {"smiles": "COc1ccc(C(=O)NCC2(N3CCOCC3)CCCCC2)cc1OC", "inhibition": "inactive: 5.62%"}, {"smiles": "CCOC(=O)N1CCC(Nc2ccc(C)cc2)CC1", "inhibition": "inactive: 4.64%"}, {"smiles": "O=C(OC1CN2CCC1CC2)C1c2ccccc2C=Cc2ccccc21", "note": "(stereo not given)", "inhibition": "inactive: -0.297%"}, {"smiles": "CCc1cc(C(=O)NCC2(N3CCCCC3)CCCCC2)sc1C", "inhibition": "inactive: 1.66%"}, {"smiles": "N#Cc1ccc(C(=O)NCC2(N3CCCCC3)CCCCC2)cc1", "inhibition": "inactive: -2.97%"}, {"smiles": "CC(C)(C)OC(=O)N1CCC(N(C(=O)c2ccccc2)c2ccc(Cl)cc2)CC1", "inhibition": "inactive: -3.92%"}, {"smiles": "CN(C)C1(CNC(=O)c2cccc(C#N)c2)CCCCC1", "inhibition": "inactive: 1.93%"}, {"smiles": "CCCN1CCC(Nc2cc(OC)cc(OC)c2)CC1", "inhibition": "inactive: 3.51%"}, {"smiles": "c1ccc(CN2CCC(Nc3ccccc3)CC2)cc1", "inhibition": "inactive: 3.27%"}, {"smiles": "CC(=O)N(c1ccccc1)C1CCNCC1", "inhibition": "inactive: 3.77%"}, {"smiles": "COc1cc(OC)cc(C(=O)NCC2(N3CCCCC3)CCCCC2)c1", "inhibition": "inactive: 3.5%"}, {"smiles": "Fc1ccccc1NC1CCN(Cc2ccccc2)CC1", "inhibition": "inactive: 2.41%"}, {"smiles": "Cc1ccc(C(=O)NCC2(N3CCCCC3)CCCCC2)o1", "inhibition": "inactive: 2.29%"}, {"smiles": "Cc1ccc(NC2(C#N)CCN(Cc3ccccc3)CC2)cc1", "inhibition": "inactive: 1.86%"}, {"smiles": "CCN1CCC(Nc2cccc(F)c2)CC1", "inhibition": "inactive: 4.4%"}, {"smiles": "Cc1ccccc1NC1(C#N)CCN(Cc2ccccc2)CC1", "inhibition": "inactive: 3.07%"}, {"smiles": "Cn1c(=O)[nH]cc(N(CCCl)CCCl)c1=O", "inhibition": "inactive: 5.19%"}, {"smiles": "CN(C)c1ccc(C(=O)NCC2(N3CCCCC3)CCCCC2)cc1", "inhibition": "inactive: 5.7%"}, {"smiles": "O=C(NCC1(N2CCCCC2)CCCCC1)c1ccco1", "inhibition": "inactive: 2.63%"}, {"smiles": "CN1CCC(Nc2ccc(F)c(Cl)c2)CC1", "inhibition": "inactive: -2.97%"}, {"smiles": "CCOc1ncccc1C(=O)NCC1(N2CCOCC2)CCCCC1", "inhibition": "inactive: 0.967%"}, {"smiles": "O=C(O)C1(Nc2ccccc2)CCN(Cc2ccccc2)CC1", "inhibition": "inactive: 2.09%"}, {"smiles": "CC(C)(C)OC(=O)N1CCC(Nc2ccccc2)CC1", "inhibition": "inactive: -0.675%"}, {"smiles": "CCCOc1ccc(C(=O)NCC2(N(C)C)CCCCC2)cc1", "inhibition": "inactive: 4.8%"}, {"smiles": "COc1cc(OC)cc(C(=O)NCC2(N3CCOCC3)CCCCC2)c1", "inhibition": "inactive: 3.06%"}, {"smiles": "COc1cccc(C(=O)N(c2cc(C)cc(C)c2)C2CCN(C(=O)OC(C)(C)C)CC2)c1", "inhibition": "inactive: 2.03%"}, {"smiles": "CN1CCC(Nc2ccc(Cl)cc2)CC1", "inhibition": "inactive: 2.94%"}, {"smiles": "COc1ccc(C(=O)NCC2(N3CCCCC3)CCCCC2)c(OC)c1OC", "inhibition": "inactive: 1.13%"}, {"smiles": "CC(C)(C)OC(=O)N1CCC(N(C(=O)c2ccccc2)c2ccc(F)cc2)CC1", "inhibition": "inactive: 6.37%"}, {"smiles": "COc1ccc(C(=O)NCC2(N3CCCCC3)CCCCC2)cc1", "inhibition": "inactive: 0.846%"}, {"smiles": "O=C(NCC1(N2CCCCC2)CCCCC1)c1cccs1", "inhibition": "inactive: 3.42%"}, {"smiles": "O=C(NCC1(N2CCCCC2)CCCCC1)c1ccc(=O)[nH]c1", "inhibition": "inactive: 1.68%"}, {"smiles": "Cc1cccc(NC2(C#N)CCN(Cc3ccccc3)CC2)c1", "inhibition": "inactive: 2.89%"}, {"smiles": "CSc1ccccc1C(=O)NCC1(N2CCCCC2)CCCCC1", "inhibition": "inactive: 3.53%"}, {"smiles": "Cc1cc(C)cc(N(C(=O)c2ccccc2)C2CCN(C(=O)OC(C)(C)C)CC2)c1", "inhibition": "inactive: 2.75%"}, {"smiles": "O=C(NCC1(N2CCCCC2)CCCCC1)c1ccc(Cl)nc1", "inhibition": "inactive: 1.36%"}, {"smiles": "O=C(NCC1(N2CCOCC2)CCCCC1)c1cc2ccccc2o1", "inhibition": "inactive: 6.86%"}, {"smiles": "COc1ccc(Cl)cc1C(=O)NCC1(N2CCOCC2)CCCCC1", "inhibition": "inactive: -1.18%"}, {"smiles": "O=C(OC1CN2CCC1CC2)C1c2ccccc2Oc2ccccc21", "note": "(stereo not given)", "inhibition": "inactive: 8.25%"}, {"smiles": "O=C(NCC1(N2CCCCC2)CCCCC1)c1ccc(Cl)s1", "inhibition": "inactive: 4.43%"}, {"smiles": "N#CC1(Nc2ccccc2)CCN(Cc2ccccc2)CC1", "inhibition": "inactive: 1.58%"}, {"smiles": "CCOC(=O)N1CCC(Nc2ccc(OC)cc2)CC1", "inhibition": "inactive: -0.489%"}, {"smiles": "CCOc1ccc(C)cc1CN(CCCl)CCCl", "inhibition": "inactive: -0.146%"}, {"smiles": "COc1ccc(NC2CCN(CCc3ccccc3)CC2)c(OC)c1", "inhibition": "inactive: 3.95%"}, {"smiles": "CCOC(=O)N1CCC(Nc2ccc(F)cc2)CC1", "inhibition": "inactive: 4.81%"}, {"smiles": "O=C(NCC1(N2CCCCC2)CCCCC1)c1ccc(F)cc1", "inhibition": "inactive: 8.48%"}, {"smiles": "O=P1(N(CCCl)CCCl)SCCCS1", "inhibition": "inactive: 1.32%"}, {"smiles": "CCCCOc1ccc(C(=O)NCC2(N3CCOCC3)CCCCC2)cc1", "inhibition": "inactive: 4.43%"}, {"smiles": "COc1cc(C(=O)NCC2(N(C)C)CCCCC2)ccc1OC(F)F", "inhibition": "inactive: -1.71%"}, {"smiles": "CCOC(=O)N1CCC(Nc2cccc(C)c2)CC1", "inhibition": "inactive: -1.55%"}, {"smiles": "O=C(NCC1(N2CCCCC2)CCCCC1)c1ccc(OC(F)F)cc1", "inhibition": "inactive: 2.03%"}, {"smiles": "N#CC1(Nc2ccccc2)CCN(CCc2ccccc2)CC1", "inhibition": "inactive: 4.76%"}, {"smiles": "CCN1CCC(Nc2ccc(Cl)cc2)CC1", "inhibition": "inactive: 1.43%"}, {"smiles": "O=C(NCC1(N2CCCCC2)CCCCC1)c1cccc([N+](=O)[O-])c1", "inhibition": "inactive: 2.65%"}, {"smiles": "CSc1ccc(C(=O)NCC2(N3CCOCC3)CCCCC2)cc1", "inhibition": "inactive: 1.98%"}, {"smiles": "O=C(NCC1(N2CCCCC2)CCCCC1)c1cccc(C(F)(F)F)c1", "inhibition": "inactive: 1.45%"}, {"smiles": "COc1cc(C(=O)NCC2(N3CCCCC3)CCCCC2)ccc1OC(F)F", "inhibition": "inactive: 4.78%"}, {"smiles": "O=C(NCC1(N2CCOCC2)CCCCC1)c1cc(=O)[nH]c2ccccc12", "inhibition": "inactive: 4.03%"}, {"smiles": "CN1CCN(CCOC(=O)C(O)(c2ccccc2)c2ccccc2)CC1", "inhibition": "inactive: 3.97%"}, {"smiles": "COc1ccc(NC2CCN(C(=O)OC(C)(C)C)CC2)cc1", "inhibition": "inactive: 2.54%"}, {"smiles": "CC(C)c1ccc(C(=O)NCC2(N3CCOCC3)CCCCC2)cc1", "inhibition": "inactive: 3.86%"}, {"smiles": "CC(C)c1ccc(NC2CCN(C(=O)OC(C)(C)C)CC2)cc1", "inhibition": "inactive: 6.45%"}, {"smiles": "CN(C)c1cccc(C(=O)NCC2(N3CCCCC3)CCCCC2)c1", "inhibition": "inactive: -0.56%"}, {"smiles": "COc1ccc(CN(CCCl)CCCl)cc1Cl", "inhibition": "inactive: 3.42%"}, {"smiles": "O=C(NCC1(N2CCOCC2)CCCCC1)c1cc(F)c(F)cc1Cl", "inhibition": "inactive: 4.61%"}, {"smiles": "COc1cc(OC)c(C(=O)NCC2(N(C)C)CCCCC2)cc1OC", "inhibition": "inactive: 0.887%"}, {"smiles": "O=C(NCC1(N2CCCCC2)CCCCC1)c1cncc(Br)c1", "inhibition": "inactive: 0.55%"}, {"smiles": "CCCOc1ccc(C(=O)NCC2(N(C)C)CCCCC2)cc1OC", "inhibition": "inactive: 1.61%"}]}]}
